Measured values from several laboratories, pooled; numbers as filed in NIAID ChemDB.

All rows: tests on isolated targets; species: HIV; protein: Reverse transcriptase; measure: IC50

Blank or dashed fields: not listed here. ICn: concentration for n% inhibition. Rows are shuffled and stem from different studies.

| SMILES | changes | method | value |
|---|---|---|---|
| CC(C)=CCN1Cc2cccc3[nH]c(=S)n(c23)C[C@@H]1C | RT-W266S | nucleotide incorporation | >68 µM |
| Cc1cc(Cc2ccc(Cl)c(Oc3cc(Cl)cc(C#N)c3)c2F)n[nH]c1=O | G190A | nucleotide incorporation | 0.001 µM |
| CCN1c2nc(Cl)ccc2NC(=O)c2cc(CSc3cccc(F)c3)cnc21 | K103N | RT activity | 13.9 µM |
| COc1ccc2nc3cc(Cl)ccc3c(NCCCN=CN)c2c1 | - | nucleotide incorporation / radiometric | 4.9 µg/mL |
| CCN1c2ncc(CSc3cccc(OC)c3)cc2C(=O)N(C)c2c(C)cc(Cl)nc21 | Y181C | RT activity | 0.118 µM |
| CCc1c(Cc2ccccc2)nc(SCC(=O)c2cccs2)[nH]c1=O | - | ELISA | 17.8 µM |
| S=C(CCCc1ccccc1)Nc1ccc(Cl)cn1 | Y181I | radiometric | >100 µM |
| COc1ccc2nc3cc(Cl)ccc3c(NCCCCCN)c2c1 | - | nucleotide incorporation / radiometric | 13 µg/mL |
| CC(C)c1c(Cc2ccccc2)nc(SCC(=O)c2ccccc2)[nH]c1=O | - | ELISA | 0.66 µM |
| Cc1cn([C@H]2CC[C@@H](COP(=O)(O)OP(=O)(O)OP(=O)(O)O)O2)c(=O)[nH]c1=O | RT-D67N K70R T215Y K219Q | nucleotide incorporation / radiometric | 0.2 µM |
| COc1ccc2nc3cc(Cl)ccc3c(NCC(C)(C)CN)c2c1 | - | nucleotide incorporation / radiometric | 23 µg/mL |
| CCN1c2nc(Cl)ccc2NC(=O)c2cc(CSc3cccc(OC)c3)cnc21 | Y181C | RT activity | 2.9 µM |
| COc1ccc2nc3cc(Cl)ccc3c(NCCCNCCCNCCCN)c2c1 | - | nucleotide incorporation / radiometric | 3.7 µg/mL |
| Cc1cc(Cc2ccc(Cl)c(Oc3cc(C#N)cc(C#N)c3)c2F)n[nH]c1=O | G190A | - | 0.001 µM |
| S=C(Cc1ccccn1)Nc1ccc(Cl)cc1 | K103N | radiometric | >100 µM |
| COc1ccc2nc3cc(Cl)ccc3c(NCCCN)c2c1 | - | nucleotide incorporation / radiometric | 18 µg/mL |
| CCN1c2ncc(CSc3ccccc3)cc2C(=O)Nc2c(C)cc(Cl)nc21 | K103N | RT activity | 0.224 µM |
| Nc1ncnc2c1ncn2[C@H]1CC[C@@H](COP(=O)(O)OP(=O)(O)OP(=O)(O)O)O1 | - | radiometric | 0.05 µM |
| COc1ccc2nc3cc(Cl)ccc3c(NCCCN3CCOCC3)c2c1 | - | nucleotide incorporation / radiometric | 46 µg/mL |
| Nc1nc2c(ncn2[C@H]2CC[C@@H](COP(=O)(O)OP(=O)(O)OP(=O)(O)O)O2)c(=O)[nH]1 | RT-V77I F116Y Q151M | nucleotide incorporation / radiometric | 0.054 µM |
| Fc1cccc(F)c1CC(=S)NCCc1ccccn1 | Y181I | radiometric | >100 µM |
| Cc1cn([C@H]2CC[C@@H](COP(=O)(O)OP(=O)(O)OP(=O)(O)OP(=O)(O)OC[C@@H]3CC[C@H](n4cc(C)c(=O)[nH]c4=O)O3)O2)c(=O)[nH]c1=O | RT-W88G | nucleotide incorporation / radiometric | 34 µM |
| COc1ccc2nc3cc(Cl)ccc3c(NCCCN(C)CCCN)c2c1 | - | nucleotide incorporation / radiometric | 6.8 µg/mL |
| Cc1cn([C@@]23CC2[C@H](COP(=O)(O)OP(=O)(O)OP(=O)(O)O)[C@@H](N=[N+]=[N-])C3)c(=O)[nH]c1=O | - | - | >1 µM |
| CCc1c(Cc2cccc3ccccc23)nc(SCC(=O)c2cccs2)[nH]c1=O | - | ELISA | 9.67 µM |
| Cc1ccnc2c1NC(=O)c1cc(N)c[nH+]c1N2C1CC1 | Y181C | RT activity | 126 µM |
| Nc1ncnc2c1ncn2[C@H]1CC[C@@H](COP(=O)(O)OP(=O)(O)OP(=O)(O)O)O1 | RT-F77L Q151M | nucleotide incorporation / radiometric | 20 µM |
| Nc1nc2c(ncn2[C@H]2CC[C@@H](COP(=O)(O)OP(=O)(O)OP(=O)(O)OP(=O)(O)OC[C@@H]3CC[C@H](n4cnc5c(=O)[nH]c(N)nc54)O3)O2)c(=O)[nH]1 | RT-K65R | nucleotide incorporation / radiometric | 9.5 µM |
| CCc1c(Cc2cccc3ccccc23)nc(Sc2cccs2)[nH]c1=O | - | ELISA | 548 µM |
| S=C(CCc1ccccc1)Nc1ccc(Cl)cn1 | Y181I | radiometric | >100 µM |
| COc1ccc(C(=O)CSc2nc(Cc3ccccc3)c(C(C)C)c(=O)[nH]2)cc1 | - | ELISA | 1.46 µM |
| COc1ccc2nc3cc(Cl)ccc3c(NCCNCCNCCN)c2c1 | - | nucleotide incorporation / radiometric | 11 µg/mL |
| CCc1c(Cc2ccccc2)nc(SCC(=O)c2ccccc2)[nH]c1=O | - | ELISA | 0.35 µM |
| COc1ccc2nc3cc(Cl)ccc3c(NCCCN(C)C)c2c1 | - | nucleotide incorporation / radiometric | 27 µg/mL |
| Nc1nc2c(ncn2[C@H]2CC[C@@H](COP(=O)(O)OP(=O)(O)OP(=O)(O)O)O2)c(=O)[nH]1 | RT-W88G | nucleotide incorporation / radiometric | 0.24 µM |
| Cc1c(Cc2ccccc2)nc(SCC(=O)c2ccccc2)[nH]c1=O | - | ELISA | 1.85 µM |

For reference, 4 entries again:

Cc1cc(Cc2ccc(Cl)c(Oc3cc(Cl)cc(C#N)c3)c2F)n[nH]c1=O ; changes: G190A ; method: nucleotide incorporation ; value: 0.001 µM
S=C(CCc1ccccc1)Nc1ccc(Cl)cn1 ; changes: Y181I ; method: radiometric ; value: >100 µM
COc1ccc2nc3cc(Cl)ccc3c(NCCCN(C)CCCN)c2c1 ; method: nucleotide incorporation / radiometric ; value: 6.8 µg/mL
CCc1c(Cc2ccccc2)nc(SCC(=O)c2ccccc2)[nH]c1=O ; method: ELISA ; value: 0.35 µM